Molecular target: Neuraminidase (Influenza A virus (A/Puerto Rico/8/1934(H1N1)), UniProt P03468)
Assay: In vitro inhibitory activity against H1N9 Influenza A Neuraminidase.

`N=C(N)Nc1cc(C(=O)O)ccc1N1CCCC1=O` gave an IC50 of 250 µM.

From ChEMBL document CHEMBL1132253, “Potent inhibition of influenza sialidase by a benzoic acid containing a 2-pyrrolidinone substituent” (J Med Chem, 1999)
